The target in assay [1] is epidermal growth factor receptor (EGFR) on human cancer cell lines (A431, HT-1080(CEA), HT-29), human, P00533 25-1210. Briefly: cell-based or functional assay.
For assay [2], the target named is carcinoembryonic antigen (CEA) on HT-1080(CEA) and HT-29 cells, human, P06731 35-685. Briefly: cell-based or functional assay.

“E6PFO (EGFR-binding Fn3 clone E6 - perfringolysin O fusion protein)”: in assay [1], the IC50's (M), cytotoxicity on A431 cells was found to be 5.4e-10 M; the IC50's (M), cytotoxicity on HT-29 cells amounted to 1.5e-11 M; the IC50's (M), cytotoxicity on HT-1080(CEA) cells was 1e-11 M.

As for “C7PFO (CEA-binding Fn3 clone C7 - perfringolysin O fusion protein)”, the IC50's (M), cytotoxicity on HT-29 cells in assay [2] came to 1.2e-10 M.
